Source: patent US11834696B2, “Antimicrobial susceptibility testing with large-volume light scattering imaging and deep learning video microscopy” (Arizona Board of Regents on behalf of Arizona State …, priority 2017, dated 2023)

Experiments:
E. coli [1] = assay: AST without DL (division feature only, cell counting from the videos); format: cell-based, Escherichia coli (ATCC 43888); details: triplicate
Method: To further validate the DLVM-AST method, we counted the total number of bacteria cells (Ntotal) from the videos (as shown in FIG. 9), and plotted Ntotal (mean±std) vs. time for PMB at various concentrations (as shown in FIG. 11C).
Growth and preparation of E. coli. Frozen E. coli strains were thawed, and 50 μL of which were cultured in 5 mL of Luria-Bertani (LB) medium (Per liter: 10 g peptone 140, 5 g yeast extract, and 5 g sodium chloride) at 37° C. and 150 rpm for 16 hours. Saturated cultures in the volume of 20 μL were diluted into 5 mL of fresh LB medium, and growth continued at 37° C. with 150 rpm for 1 hour to attain a logarithmic phase of growth. Bacterial cells were collected by centrifugation at 450 g for 5 min and suspended in urine to a concentration of 2×10^7 cells/mL^36. This concentration was determined by measuring the extinction coefficients for E. coli from the Optical Density (OD600) reading taken with a spectrophototometer (NanoDrop™ 2000/2000c Spectrophotometers, Thermo Scientific). The calibration factor for bacterial cell cultures estimation was 8×10^8 cells/mL per OD600 unit. […]
AST with video microscopy. […] Videos of the bacterial cells were recorded at 100 frames per second (fps) immediately (0 min) and after every 30 min. […] To include enough cells for reliable results, we integrated bacterial cells from three videos recorded from different experiments. […]

E. coli [2] = assay: Deep learning video microscopy-based antimicrobial susceptibility testing (DLVM-AST); format: cell-based, Escherichia coli (ATCC 43888); details: time needed to determine MIC; triplicate

polymyxin B was tested, and the “assay time, AST Without DL” value (E. coli [1]) was 3 h and the “assay time, DLVM-AST” value (E. coli [2]) was 0.5 h.

For `O=C(O)c1cn(C2CC2)c2cc(N3CCNCC3)c(F)cc2c1=O` [Ciprofloxacin, ciprofloxacin], the “assay time, AST Without DL” value (E. coli [1]) was 4 to 5 h and the “assay time, DLVM-AST” value (E. coli [2]) was 3 h.
